Assay results reported in patent publication US20220089698A1, “ANTIBODIES THAT TARGET HIV GP120 AND METHODS OF USE” (published 2022).

B1: Antibody 1.1.90-1 (antibody, human IgG1, kappa, V domains shown)
VH: QVQLLQSGAAVTKPGASVRVSCEASGYNIRDYFIHWWRQAPGQGLQWVGWINPKTGQPNNPRQFQGRVSLTRHASWDFDTFSFYMDLKALRSDDTAVYFCARQRSDYWDFDVWGSGTQVTVSS
VL: DIQMTQSPSSLSASVGDRATITCQANGYLNWYQQRRGKAPKLLIYDGSKLERGVPSRFSGSRWGQEYNLTISSLQPEDIATYFCQVYEFFGPGTRLDLKR
B2: Antibody 1.1.64-1 (antibody, human IgG1, kappa)
heavy: QVQLLQSGAAVTKPGASVRVSCEASGYNIRDYFIHWWRQAPGQGLQWVGWINPKTGQPNNPRQFQGRVSLTRHASWDFDTFSFYMDLKALRSDDTAVYFCARQRSDYWDFDVWGSGTQVTVSSASTKGPSVFPLAPSSKSTSGGTAALGCLVKDYFPEPVTVSWNSGALTSGVHTFPAVLQSSGLYSLSSVVTVPSSSLGTQTYICNVNHKPSNTKVDKKVEPKSCDKTHTCPPCPAPELLAGPDVFLFPPKPKDTLMISRTPEVTCVVVDVSHEDPEVKFNWYVDGVEVHNAKTKPREEQYNSTYRVVSVLTVLHQDWLNGKEYKCKVSNKALPLPEEKTISKAKGQPREPQVYTLPPSREEMTKNQVSLTCLVKGFYPSDIAVEWESNGQPENNYKTTPPVLDSDGSFFLYSKLTVDKSRWQQGNVFSCSVLHEALHSHYTQKSLSLSPGK
light: not shown

What was measured:
Assay in all cases: cell-based or functional assay
[1] = target: HIV-1 envelope glycoprotein gp120 of virus 92US712 (HIV-1)
[2] = target: HIV-1 envelope glycoprotein gp120 of virus 1489 (HIV-1)
[3] = target: HIV-1 envelope glycoprotein gp120 of virus 7352 (HIV-1)
[4] = target: HIV-1 envelope glycoprotein gp120 of virus 7007 (HIV-1)
[5] = target: HIV-1 envelope glycoprotein gp120 of virus 7714 (HIV-1)
[6] = target: HIV-1 envelope glycoprotein gp120 of virus 7552 (HIV-1)
[7] = target: HIV-1 envelope glycoprotein gp120 of virus CH077 (HIV-1)
[8] = target: HIV-1 envelope glycoprotein gp120 of virus 8320 (HIV-1)
[9] = target: HIV-1 envelope glycoprotein of virus WITO (HIV-1)
[10] = target: HIV-1 envelope glycoprotein gp120 of virus RHPA (HIV-1)
[11] = target: HIV-1 envelope glycoprotein gp120 of virus 8106 (HIV-1)
[12] = target: HIV-1 envelope glycoprotein gp120 of virus 1003 (HIV-1)
[13] = target: HIV-1 envelope glycoprotein gp120 of virus BaL (HIV-1)
[14] = target: HIV-1 envelope glycoprotein gp120 of virus 7015 (HIV-1)
[15] = target: HIV-1 envelope glycoprotein gp120 of virus 8117 (HIV-1)
[16] = target: HIV-1 envelope glycoprotein gp120 of virus 8359 (HIV-1)
[17] = target: HIV-1 envelope glycoprotein gp120 of virus 8089 (HIV-1)
[18] = target: HIV-1 envelope glycoprotein gp120 of virus 7141 (HIV-1)
[19] = target: HIV-1 envelope glycoprotein gp120 of virus 8318 (HIV-1)
[20] = target: HIV-1 envelope glycoprotein gp120 of virus 8176 (HIV-1)
[21] = target: HIV-1 envelope glycoprotein gp120 of virus 7576 (HIV-1)
[22] = target: HIV-1 envelope glycoprotein gp120 of virus 7596 (HIV-1)
[23] = target: HIV-1 envelope glycoprotein gp120 of virus THRO (HIV-1)
[24] = target: HIV-1 envelope glycoprotein gp120 of virus 8134 (HIV-1)
[25] = target: HIV-1 envelope glycoprotein gp120 of virus 7103 (HIV-1)
[26] = target: HIV-1 envelope glycoprotein gp120 of virus 92US727 (HIV-1)
[27] = target: HIV-1 envelope glycoprotein gp120 of virus 7595 (HIV-1)
[28] = target: HIV-1 envelope glycoprotein gp120 of virus 8339 (HIV-1)
[29] = target: HIV-1 envelope glycoprotein gp120 of virus 92HT593 (HIV-1)
[30] = target: HIV-1 envelope glycoprotein gp120 of virus REJO (HIV-1)
[31] = target: HIV-1 envelope glycoprotein gp120 of virus 8398 (HIV-1)
[32] = target: HIV-1 envelope glycoprotein gp120 of virus 7051 (HIV-1)
[33] = target: HIV-1 envelope glycoprotein gp120 of virus CH106 (HIV-1)
[34] = target: HIV-1 envelope glycoprotein gp120 of virus 1012 (HIV-1)
[35] = target: HIV-1 envelope glycoprotein gp120 of virus CH058 (HIV-1)
[36] = target: HIV-1 envelope glycoprotein gp120 of virus 1413 (HIV-1)
[37] = target: HIV-1 envelope glycoprotein gp120 of virus CH040 (HIV-1)
[38] = target: HIV-1 envelope glycoprotein gp120 of virus 7467 (HIV-1)
[39] = target: HIV-1 envelope glycoprotein gp120 of virus 8110 (HIV-1)
[40] = target: HIV-1 envelope glycoprotein gp120 of virus 92US657 (HIV-1)

Binder | HIV Neutralization Potency [1] [mg/L] | HIV Neutralization Potency [2] [mg/L] | HIV Neutralization Potency [3] [mg/L] | HIV Neutralization Potency [4] [mg/L] | HIV Neutralization Potency [5] [mg/L] | HIV Neutralization Potency [6] [mg/L] | HIV Neutralization Potency [7] [mg/L] | HIV Neutralization Potency [8] [mg/L] | HIV Neutralization Potency [9] [mg/L] | HIV Neutralization Potency [10] [mg/L] | HIV Neutralization Potency [11] [mg/L] | HIV Neutralization Potency [12] [mg/L] | HIV Neutralization Potency [13] [mg/L] | HIV Neutralization Potency [14] [mg/L] | HIV Neutralization Potency [15] [mg/L] | HIV Neutralization Potency [16] [mg/L] | HIV Neutralization Potency [17] [mg/L] | HIV Neutralization Potency [18] [mg/L] | HIV Neutralization Potency [19] [mg/L] | HIV Neutralization Potency [20] [mg/L] | also measured
B1 | 0.07 | 0.24 | > 50 | > 50 | 3.76 | > 50 | 0.1 | 0.39 | 0.07 | 0.16 | 0.89 | 1.92 | 0.13 | 1.03 | 1.14 | 0.58 | 0.47 | 2.41 | 0.21 | 0.24 | HIV Neutralization Potency [21]: 0.36 mg/L; HIV Neutralization Potency [22]: 11.5 mg/L; HIV Neutralization Potency [23]: 7.42 mg/L; HIV Neutralization Potency [24]: 1.05 mg/L; HIV Neutralization Potency [25]: 1.13 mg/L; HIV Neutralization Potency [26]: 3.8 mg/L; HIV Neutralization Potency [27]: 3.71 mg/L; HIV Neutralization Potency [28]: > 50 mg/L; HIV Neutralization Potency [29]: 0.68 mg/L; HIV Neutralization Potency [30]: 0.07 mg/L; HIV Neutralization Potency [31]: > 50 mg/L; HIV Neutralization Potency [32]: 0.19 mg/L; HIV Neutralization Potency [33]: 1.69 mg/L; HIV Neutralization Potency [34]: 1.4 mg/L; HIV Neutralization Potency [35]: 0.05 mg/L; HIV Neutralization Potency [36]: 3.55 mg/L; HIV Neutralization Potency [37]: 9.57 mg/L; HIV Neutralization Potency [38]: 0.06 mg/L; HIV Neutralization Potency [39]: 1.65 mg/L; HIV Neutralization Potency [40]: 1.17 mg/L
B2 | 0.06 | 0.13 | 40.1 | > 50 | 7.48 | 16.1 | 0.03 | 0.37 | 0.13 | 0.09 | 1.08 | 1.25 | 0.08 | 0.6 | 1.13 | 0.48 | 0.32 | 1.99 | 0.23 | 0.24 | HIV Neutralization Potency [21]: 0.41 mg/L; HIV Neutralization Potency [22]: 16.2 mg/L; HIV Neutralization Potency [23]: 9.6 mg/L; HIV Neutralization Potency [24]: 0.29 mg/L; HIV Neutralization Potency [25]: 1.01 mg/L; HIV Neutralization Potency [26]: 0.79 mg/L; HIV Neutralization Potency [27]: 4.48 mg/L; HIV Neutralization Potency [28]: > 50 mg/L; HIV Neutralization Potency [29]: 0.35 mg/L; HIV Neutralization Potency [30]: 0.04 mg/L; HIV Neutralization Potency [31]: > 50 mg/L; HIV Neutralization Potency [32]: 0.23 mg/L; HIV Neutralization Potency [33]: 0.99 mg/L; HIV Neutralization Potency [34]: 1.4 mg/L; HIV Neutralization Potency [35]: 0.03 mg/L; HIV Neutralization Potency [36]: 2.35 mg/L; HIV Neutralization Potency [37]: 18.6 mg/L; HIV Neutralization Potency [38]: 0.03 mg/L; HIV Neutralization Potency [39]: 2.62 mg/L; HIV Neutralization Potency [40]: 0.79 mg/L
